Assay results: paper PMC12201654

Tests used:
Assay in all cases: pull-down
[1] = tested on: PCV2d Rep (FLAG) (Porcine circovirus 2d); conditions: Pull-down: IP lysis buffer 4 h at 4 C (lysates) or NP-40 buffer 6 h at 4 C (recombinant), biotin-HSV60 40 ug/mL; phase separation 50-300 mM NaCl; protein in a lysate after overexpression; protein details: N-terminal FLAG; label: 5'-biotin
[2] = tested on: SUMO-PCV2d Rep (Porcine circovirus 2d); conditions: Pull-down: IP lysis buffer 4 h at 4 C (lysates) or NP-40 buffer 6 h at 4 C (recombinant), biotin-HSV60 40 ug/mL; phase separation 50-300 mM NaCl; recombinant protein; protein details: His6-SUMO, C-terminal Myc; label: 5'-biotin
[3] = target: T1, pcGAS (HA) (pig (porcine)) (UniProt I3LM39); conditions: reduced by competing PCV2d, PCV2a or PCV4 Rep; Pull-down: IP lysis buffer 4 h at 4 C (lysates) or NP-40 buffer 6 h at 4 C (recombinant), biotin-HSV60 40 ug/mL; phase separation 50-300 mM NaCl; protein in a lysate after overexpression; protein details: HA; label: 5'-biotin
T1 sequence (looked up, limits assumed): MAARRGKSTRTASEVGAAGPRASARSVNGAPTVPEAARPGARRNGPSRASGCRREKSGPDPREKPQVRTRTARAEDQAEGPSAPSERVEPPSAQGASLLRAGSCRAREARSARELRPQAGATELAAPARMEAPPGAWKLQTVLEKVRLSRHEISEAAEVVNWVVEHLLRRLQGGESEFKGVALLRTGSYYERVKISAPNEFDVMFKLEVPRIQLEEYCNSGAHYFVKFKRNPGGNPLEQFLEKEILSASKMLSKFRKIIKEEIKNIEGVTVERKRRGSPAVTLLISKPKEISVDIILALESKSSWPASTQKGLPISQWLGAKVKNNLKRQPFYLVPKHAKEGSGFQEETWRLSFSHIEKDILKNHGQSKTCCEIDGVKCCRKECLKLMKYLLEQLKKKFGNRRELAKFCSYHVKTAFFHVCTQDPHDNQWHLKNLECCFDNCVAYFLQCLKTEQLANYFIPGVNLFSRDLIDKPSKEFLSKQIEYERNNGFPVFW

[4] = tested on: PCV2d Rep G177-179A (Porcine circovirus 2d); conditions: Pull-down: IP lysis buffer 4 h at 4 C (lysates) or NP-40 buffer 6 h at 4 C (recombinant), biotin-HSV60 40 ug/mL; phase separation 50-300 mM NaCl; protein in a lysate after overexpression; protein details: N-terminal FLAG; label: 5'-biotin
[5] = target: PCV2a Rep (FLAG) (Porcine circovirus 2a) (UniProt Q77Q74); conditions: Pull-down: IP lysis buffer 4 h at 4 C (lysates) or NP-40 buffer 6 h at 4 C (recombinant), biotin-HSV60 40 ug/mL; phase separation 50-300 mM NaCl; protein in a lysate after overexpression; protein details: N-terminal FLAG; label: 5'-biotin
[6] = target: T2, PCV4 Rep (FLAG) (Porcine circovirus 4) (UniProt A0A7M4CFI7); conditions: Pull-down: IP lysis buffer 4 h at 4 C (lysates) or NP-40 buffer 6 h at 4 C (recombinant), biotin-HSV60 40 ug/mL; phase separation 50-300 mM NaCl; protein in a lysate after overexpression; protein details: N-terminal FLAG; label: 5'-biotin
T2 sequence (looked up, limits assumed): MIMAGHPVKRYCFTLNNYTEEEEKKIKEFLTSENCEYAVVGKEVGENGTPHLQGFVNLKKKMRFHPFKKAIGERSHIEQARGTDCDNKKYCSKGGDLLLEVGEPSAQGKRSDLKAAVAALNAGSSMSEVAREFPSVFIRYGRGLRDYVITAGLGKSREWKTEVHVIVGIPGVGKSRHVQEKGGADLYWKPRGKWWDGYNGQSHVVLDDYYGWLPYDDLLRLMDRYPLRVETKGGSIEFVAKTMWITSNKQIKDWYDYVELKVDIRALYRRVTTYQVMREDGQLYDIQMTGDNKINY

Measured: binding result

TAAGACACGATGCGATAAAATCTGTTTGTAAAATTTATTAAGGGTACAAATTGCCCTAGC (double strand) [biotin-HSV60]
binds: [1] | [2] | [3] | [4] | [5] | [6]

The exact form of at least one protein or probe is not confirmed. For part of these data: Where cells or extracts were used, other partners may take part. For part of these data: At least one verdict was read from the data and is not stated in words by the source. For part of these data: Protein sequences can lack the tags named with them.
